Pooled drug test results. Numbers come from NIAID ChemDB, via PubChem.

All rows: whole-cell or culture tests; agent: Mycobacterium tuberculosis

Lines come from different laboratories, so protocols vary. Inhibition is in % at the dose shown (toxicity tests: loss of growth or viability). Two numbers with a dash give a range or band. A number after MIC or MFC names an inhibition level or a share of isolates. Blank or dashed fields: not listed here. MIC bound: limit read from a one-dose screen. ECn: concentration that inhibits the pathogen or its effect by n%.

compound	mutations	read-out	dose	method	strain or isolate	result
CCn1cc(C(=O)O)c(=O)c2cc(F)c(N3CCNC(C)C3)c(F)c21		MBC			5 strains (wild type)	4 µg/mL
CCCCS(=O)(=O)Nc1ccc2[nH]c(C(N)=O)c(C)c2c1	I122S DG167-resistant	MIC90		resazurin	DRM167 16x6	>100 µM
CC(C)(C)c1cccc(N2CCC3(CCN(Cc4ccc([N+](=O)[O-])o4)CC3)CC2)c1	INH RFP resistant	MIC90		resazurin	Clinical Isolate 16995	9.89 µg/mL
COc1cc(C2=NN(C(=O)COc3ccc4ccccc4c3)C3CCCC23)c(C)cc1OCC(=O)O		MIC			Isoniazid-resistant	>6.25 µg/mL
CC1COc2c(N3CCN(C)CC3)c(F)cc3c(=O)c(C(=O)O)cn1c23		MIC50			25 strains	0.78 µg/mL
CO[C@H]1/C=C/O[C@@]2(C)Oc3c(C)c(O)c4c(O)c(cc(OCC(=O)N5CCCCC5)c4c3C2=O)NC(=O)/C(C)=C\C=C\[C@H](C)[C@H](O)[C@@H](C)[C@@H](O)[C@@H](C)[C@H](OC(C)=O)[C@@H]1C		MIC			H37Rv	0.005 µg/mL
O=C(CC(=O)N1N=C(c2ccccc2)C(N=Nc2ccc(C(=O)O)cc2)C1=O)Nc1ccc(F)cc1		MIC		BACTEC	H37Rv	≥12.5 µg/mL
CC(=O)c1ncnc2c1ncn2Cc1ccccc1		EC50		BACTEC	H37Rv	>12.5 µg/mL
CO[C@H]1/C=C/O[C@@]2(C)Oc3c(C)c(O)c4c(O)c(cc(OCC(=O)N5C(C)CCC5C)c4c3C2=O)NC(=O)/C(C)=C\C=C\[C@H](C)[C@H](O)[C@@H](C)[C@@H](O)[C@@H](C)[C@H](OC(C)=O)[C@@H]1C		MIC			H37Rv	0.37 µg/mL
CCCCS(=O)(=O)Nc1ccc2[nH]c(C(=O)NCc3ccccc3F)c(C)c2c1		MIC90		resazurin	H37Rv	0.78 µM
C[N+](C)(CCCCCC[N+](C)(C)CC(=O)NC(N)=O)CC(=O)NC(N)=O.[Cl-].[Cl-]		inhibition	12.5 µg/mL	BACTEC	H37Rv	0%
O=[N+]([O-])c1ccc(CN2CCC3(CC2)CCN(c2ccc(C(F)(F)F)cc2)CC3)o1	INH RFP resistant	MIC90		resazurin	Clinical Isolate 16995	>10 µg/mL
Cc1ccc2c(c1)C(=O)N(N(C)C)CC(=O)N2		MIC bound		BACTEC	H37Rv	>12.5 µg/mL
CCCCCCCCCCCCNC(CCO)C1OC2OC(C)(C)OC2[C@@H]1OCc1ccccc1		MIC			H37Ra	3.12 µg/mL
COc1ccc(/C=N/N=c2\scc(-c3cc4cc(Br)ccc4oc3=O)n2C2CCCCC2)cc1		EC50			H37Rv	<6.25 µg/mL
O=C(N/N=C/c1ccccc1)c1ccccc1-c1nc2ccccc2[nH]1		inhibition	0.031 µg/mL		H37Rv	32%
CCCCCCCCCCCCNC(CCO)C1OC2OC(C)(C)OC2[C@H]1OCc1ccccc1		MIC			H37Ra	6.25 µg/mL
CCCCNCc1cccc(C)c1		MIC			H37Rv	125 µg/mL
CCCCN(CCCC)C(=O)COc1cc2c(O)c3c(O)c(C)c4c(c13)C(=O)[C@@](C)(O/C=C/[C@H](OC)[C@@H](C)[C@@H](OC(C)=O)[C@H](C)[C@H](O)[C@H](C)[C@@H](O)[C@@H](C)/C=C/C=C(/C)C(=O)N2)O4		MIC			H37Rv	0.02 µg/mL
C=CCOC(=O)NC(Cc1ccccc1)C(=O)NNc1ccccc1		MIC bound		BACTEC	H37Rv	>12.5 µg/mL
O=C(N/N=C/c1ccccc1Cl)c1ccccc1-c1nc2ccccc2[nH]1		inhibition	0.031 µg/mL		H37Rv	35%
CC1(C)OC2O[C@H](C(CCO)NC3CC3)C3OC(C)(C)OC3C2O1		MIC			H37Ra	>100 µg/mL
CCCCNCc1ccc(N(C)C)cc1		MIC			H37Rv	60 µg/mL
CCOCCOC(=O)c1nn(-c2ccc(Cl)cc2)c2c1C(=O)c1ccccc1C2=O		inhibition	6.25 µg/mL	resazurin	H37Rv	4%
C(=C\c1nc(-c2ccccc2)nc2c1ncn2Cc1ccccc1)/c1ccccc1		EC50		BACTEC	H37Rv	<12.5 µg/mL
O=c1[nH]cnc2nc(N3CCN(c4ccccc4)CC3)sc12		MIC bound		resazurin	H37Rv	>6.25 µg/mL
CCCCS(=O)(=O)Nc1ccc2[nH]c(C(=O)NCc3ccc(C)cc3)c(C)c2c1		MIC90		resazurin	H37Rv	3.1–6.2 µM
NC(=O)C(=CNC(=S)NCc1ccccc1)C(N)=O		MIC bound		resazurin	H37Rv	<6.25 µg/mL
CC(=O)c1nc(/C=C/c2ccccc2)c2ncn(Cc3ccccc3)c2n1		EC50		BACTEC	H37Rv	<12.5 µg/mL
CCCCCCCCCCCCCNC(CCO)[C@H]1OC2OC(C)(C)OC2C2OC(C)(C)OC21		MIC			H37Rv	<12.5 µg/mL
Nc1ncc2ncn(Cc3ccccc3)c2n1		EC50		BACTEC	H37Rv	>12.5 µg/mL
CCCCS(=O)(=O)Nc1ccc2[nH]c(C(=O)NCc3ccccc3Cl)c(C)c2c1		MIC90		resazurin	H37Rv	3.13 µM
CCCCCCCCCCCCc1ccc(NC(=O)C2=CCN(C)[C@@H]([C@H](O[C@@H]3O[C@H](CN)[C@@H](O)[C@H]3O)[C@H]3O[C@@H](n4ccc(=O)[nH]c4=O)[C@H](O)[C@@H]3O)C(=O)N2C)cc1		MIC			H37Rv	3.13 µg/mL
CCOC(=O)c1cn(C)c2c(cc([N+](=O)[O-])c3cccnc32)c1=O	gyrA mutation A90V	MIC90			BCG	2.35 µM
O=C1C2=C(c3ccccc31)C(c1ccccc1)N1C(=O)CSC1=N2		MIC bound		BACTEC	H37Rv	>12.5 µg/mL
CCCCCCCCCCCCCCCCCCNC(CCO)C1OC2OC(C)(C)OC2[C@H]1OCc1ccccc1		MIC			H37Rv	25 µg/mL
C[C@@H]1CN(c2c(F)c(N)c3c(=O)c(C(=O)O)cn(C4CC4)c3c2F)C[C@H](C)N1		MIC			891207	0.2 µg/mL
CCCCCCCCCCCCCCCCNC(CCO)C1OC2OC(C)(C)OC2[C@@H]1OC		MIC			H37Rv	6.25 µg/mL
CC(C)(C)c1ccc(N2CCN(Cc3ccc([N+](=O)[O-])o3)CC2)cc1	INH RFP resistant	MIC90		resazurin	Clinical Isolate 16833	>32 µg/mL
COc1ccc(/C=N/N=c2/scc(-c3cc4cc(Br)ccc4oc3=O)n2C2CCCCC2)cc1OC		MIC			H37Rv	>6.25 µg/mL
COc1nc(N)c(NC2OC[C@@H](O)[C@@H](O)[C@@H]2O)c(=O)n1C		MIC bound		resazurin	H37Rv	>6.25 µg/mL
CC(C)CC(C)NCc1ccccc1		MIC			H37Rv	250 µg/mL
CN(C)c1ccc(/C=c2\sc3nnc(-c4cccnc4)n3c2=O)cc1		inhibition	12.5 µg/mL	BACTEC	H37Rv	0%
O=C(NN1C(=O)C(Cl)C1c1ccccc1Cl)c1ccccc1-c1nc2ccccc2[nH]1		inhibition	0.031 µg/mL		H37Rv	32%
CCCCS(=O)(=O)Nc1ccc2[nH]c(C#N)c(C)c2c1	I122S DG167-resistant	MIC90		resazurin	DRM167 16x6	>100 µM
O=c1oc2ccc(Br)cc2cc1-c1cs/c(=N/N=C/c2ccc(Cl)c(Cl)c2)n1C1CCCCC1		MIC			H37Rv	>6.25 µg/mL
O=[N+]([O-])c1c(/C=N/Nc2ccccc2)oc(-c2ccc3c(c2)OCO3)c1-c1ccc2c(c1)OCO2		MIC bound		BACTEC	H37Rv	>12.5 µg/mL
CCCCCCCCCCCCCCCCNC[C@H]1OC2OC(C)(C)OC2C2OC(C)(C)OC21		MIC			H37Rv	<12.5 µg/mL
O=C(Nc1ccc(Cl)cc1)Nc1nnc2nc(C(C(=O)c3cccc([N+](=O)[O-])c3Cl)c3nc4nnc(NC(=O)Nc5ccc(Cl)cc5)n4[nH]c3=O)c(=O)[nH]n12		MIC bound		BACTEC	H37Rv	>12.5 µg/mL
O=C(N/N=C/c1ccc(Cl)cc1Cl)c1ccccc1-c1nc2ccccc2[nH]1		inhibition	0.031 µg/mL		H37Rv	96%
O=c1oc2ccc(Br)cc2cc1-c1cs/c(=N/N=C/c2cc([N+](=O)[O-])ccc2O)n1C1CCCCC1		EC50			H37Rv	>6.25 µg/mL
CCn1cc(C(=O)O)c(=O)c2ccc(C)nc21	gyrA mutation D94G gyrB mutation D500N	MIC90			H37Rv	>50 µM
CO[C@H]1/C=C/O[C@@]2(C)Oc3c(C)c(O)c4c(O)c(c5c(c4c3C2=O)NC2(CCN(CC(C)C)CC2)N=5)=NC(=O)/C(C)=C\C=C\[C@H](C)[C@H](O)[C@@H](C)[C@@H](O)[C@@H](C)[C@H](OC(C)=O)[C@@H]1C		MIC			H37Rv	0.03 µg/mL
C1CC[N+]2(CC1)CCCCC2.NC(=S)[S-]		MIC			CS-R	1.6 µg/mL
CO[C@H]1/C=C/O[C@@]2(C)Oc3c(C)c(O)c4c(O)c(c5c(c4c3C2=O)NC2(CCN(CC(C)C)CC2)N=5)=NC(=O)/C(C)=C\C=C\[C@H](C)[C@H](O)[C@@H](C)[C@@H](O)[C@@H](C)[C@H](OC(C)=O)[C@@H]1C		MIC			1 isolates (Ser522Trp)	>5 µg/mL
C(=C\c1nc(-c2ccccc2)c2ncn(Cc3ccccc3)c2n1)/c1ccccc1		EC50		BACTEC	H37Rv	>12.5 µg/mL
O=c1oc2ccccc2cc1-c1cs/c(=N/N=C/c2ccc(Br)cc2)n1C1CCCCC1		inhibition	6.25 µg/mL		H37Rv	0%
O=C(O)c1ccc2c3c(ncnc13)-c1ccccc1C2=O		MIC		BACTEC	H37Rv	64 µg/mL
CCCCCCCNC(CCO)[C@H]1OC2OC(C)(C)OC2C2OC(C)(C)OC21		MIC			H37Rv	>100 µg/mL
CCCCNCc1cccc(O)c1		MIC			H37Rv	125 µg/mL
C=C1C(=O)OC2/C=C(/C=O)C3OC3C3OC3(C)CC(OC(=O)/C(=C/C)CO)C12		MIC bound		BACTEC	H37Rv	>12.5 µg/mL
COc1ccc(/C=N/NC(=O)c2ccccc2-c2nc3ccccc3[nH]2)cc1		EC50			H37Rv	>0.031 µg/mL
CO[C@H]1/C=C/O[C@@]2(C)Oc3c(C)c(O)c4c(O)c(c(/C=N/N5CCN(C)CC5)c(O)c4c3C2=O)NC(=O)/C(C)=C\C=C\[C@H](C)[C@H](O)[C@@H](C)[C@@H](O)[C@@H](C)[C@H](OC(C)=O)[C@@H]1C		MIC			10 isolates	0.06–0.24 µg/mL
NNC(=O)c1ccncc1		MIC99			H37Rv	0.05 µg/mL
N#Cc1ccc(N2CC3CCC2CN3Cc2ccc([N+](=O)[O-])o2)cc1		MIC90		resazurin	H37Rv	<0.016 µg/mL
CC1NC(=O)C(C(C)C)NC(=O)C2=CN(Cc3ccccc3)C=CC2NC(=O)C(C)NC(=O)C(C(C)C)NC(=O)C2=CN(Cc3ccccc3)C=CC2NC1=O		MIC bound		BACTEC	H37Rv	>12.5 µg/mL
O=[N+]([O-])c1ccc(CN2CC3CN(c4cccc(C(F)(F)F)c4)CC3C2)o1		MIC90		resazurin	H37Rv	<0.016 µg/mL
O=C(O)c1cc(O)c2c(c1)[C@H]([C@H]1c3cc(C(=O)O)cc(O)c3C(=O)c3c(O[C@@H]4O[C@H](CO)[C@@H](O)[C@H](O)[C@H]4O)cccc31)c1cccc(O[C@@H]3O[C@H](CO)[C@@H](O)[C@H](O)[C@H]3O)c1C2=O		inhibition	12.5 µg/mL	BACTEC	H37Rv	8%
CC(=O)NCC1CN(c2ccc(C(C)=O)cc2)C(=O)O1		MIC			H37RV (RIF-R)	0.97 µg/mL
COc1cccc2c1C(=O)c1c(O)c3c(c(O)c1C2=O)C[C@@](O)(/C(C)=N/NC(=O)CO)CC3OC1CC(N)C(O)C(C)O1.Cl		MIC			RMP-R	>12.5 µg/mL
CCCCCCCCc1ccc(Oc2ccccc2)c(O)c1		MIC99			NHN382	2.6 µg/mL
Cc1ccc2c(c1)P(=O)(O)c1cc(C)ccc1S2(=O)=O		inhibition	12.5 µg/mL	BACTEC	H37Rv	-23%
O=C(N/N=C/c1ccccc1O)c1ccccc1-c1nc2ccccc2[nH]1		EC50			H37Rv	<0.031 µg/mL
O=C1C(=O)c2ccccc2C(O)=C1CCCc1ccc(C2CCCCC2)cc1		MIC bound		BACTEC	H37Rv	≤128 µg/mL
CCN(CCO)C(=O)COc1cc2c(O)c3c(O)c(C)c4c(c13)C(=O)[C@@](C)(O/C=C/[C@H](OC)[C@@H](C)[C@@H](OC(C)=O)[C@H](C)[C@H](O)[C@H](C)[C@@H](O)[C@@H](C)/C=C/C=C(/C)C(=O)N2)O4		MIC			H37Rv	0.09 µg/mL

A second listing of 5 rows from above:

compound | mutations | read-out | dose | method | strain or isolate | result
CCCCS(=O)(=O)Nc1ccc2[nH]c(C(=O)NCc3ccccc3F)c(C)c2c1 |  | MIC90 |  | resazurin | H37Rv | 0.78 µM
CC(C)(C)c1ccc(N2CCN(Cc3ccc([N+](=O)[O-])o3)CC2)cc1 | INH RFP resistant | MIC90 |  | resazurin | Clinical Isolate 16833 | >32 µg/mL
CO[C@H]1/C=C/O[C@@]2(C)Oc3c(C)c(O)c4c(O)c(c(/C=N/N5CCN(C)CC5)c(O)c4c3C2=O)NC(=O)/C(C)=C\C=C\[C@H](C)[C@H](O)[C@@H](C)[C@@H](O)[C@@H](C)[C@H](OC(C)=O)[C@@H]1C |  | MIC |  |  | 10 isolates | 0.06–0.24 µg/mL
CC(C)CC(C)NCc1ccccc1 |  | MIC |  |  | H37Rv | 250 µg/mL
CCCCNCc1cccc(O)c1 |  | MIC |  |  | H37Rv | 125 µg/mL